A mixed list of measured activities; the numbers were collected in NIAID ChemDB.

All rows: tests in culture; organism: Aspergillus fumigatus

Zones are inhibition diameters on agar. ECn: concentration that inhibits the pathogen or its effect by n%. Conditions beyond the fields shown may differ between rows. A number after MIC or MFC names an inhibition level or a share of isolates. Percent inhibition refers to the dose given; in toxicity tests it is the harm to the cells.

{"SMILES": "N#Cc1ccc(/C=C/C(=O)OC2CCN(CC(O)(Cn3cncn3)c3ccc(F)cc3F)CC2)cc1", "strain or isolate": "0504656", "endpoint": "MIC80", "read by": "broth dilution", "value": "2.028 µM"}
{"SMILES": "CC(C)CC1NC(=O)CC(CCCCCCCCC(C)O)OC(=O)C(CC(C)C)NC(=O)C(CC(C)C)NC(=O)C(CC(C)C)NC(=O)C(C(C)C)NC(=O)C(CC(=O)O)NC(=O)C(CC(C)C)NC1=O", "strain or isolate": "Clinical isolate", "endpoint": "MFC", "read by": "visual reading", "value": "8 µg/mL"}
{"SMILES": "O=C(NCc1ccc(Cl)c(Cl)c1)c1ccccc1O", "strain or isolate": "231", "endpoint": "Geometric mean MIC", "value": "403.4 µM"}
{"SMILES": "COC(=O)[C@H]1[C@@H]2C[C@@H](O[C@@H]3O[C@H](C)[C@@H](O)[C@H](N)[C@@H]3O)/C=C/C=C/C=C/C=C/C=C/C=C/C=C/[C@H](C)[C@@H](O)[C@H](C)[C@H](C)OC(=O)C[C@H](O)C[C@H](O)[C@@H](O)CC[C@H](O)C[C@H](O)C[C@](O)(C[C@@H]1O)O2", "strain or isolate": "35 isolates", "endpoint": "Geometric mean MIC", "value": "0.87 µg/mL"}
{"SMILES": "O=C(OC1CCN(CC(O)(Cn2cncn2)c2ccc(F)cc2F)CC1)C(F)(F)F", "strain or isolate": "0504656", "endpoint": "MIC80", "read by": "broth dilution", "value": "147 µM"}
{"SMILES": "COc1ccc(-c2n[nH]c(COc3nc(C(F)(F)F)nc4ccccc34)n2)cc1", "strain or isolate": "MTCC 343", "endpoint": "MIC100", "value": "25 µg/mL"}
{"SMILES": "C[C@@H](c1ncncc1F)[C@](O)(Cn1cncn1)c1ccc(F)cc1F", "strain or isolate": "28 isolates", "endpoint": "Geometric mean MIC", "value": "0.05 µg/mL"}
{"SMILES": "CCCCc1ccc(C(=O)Oc2c(OC)cc3ccnc4c3c2N(C)C=C4)cc1", "endpoint": "EC50", "value": "5 µg/mL"}
{"SMILES": "COc1ccc(-c2n[nH]c(COc3nc(C)nc4ccccc34)n2)cc1", "strain or isolate": "MTCC 343", "endpoint": "MIC100", "value": "25 µg/mL"}
{"SMILES": "Cc1ccc(C(C)C)cc1O", "strain or isolate": "F17", "endpoint": "MLC", "value": "0.16 µg/mL"}
{"SMILES": "NCCNC(=O)C1=Nc2ccc(NC(=O)C3=Nc4ccc(C(=O)Nc5ccc6[nH]c(C(=O)NCCN)cc6c5)cc4C3)cc2C1", "endpoint": "MFC", "value": ">25 µg/mL"}
{"SMILES": "CC(C(O)(Cn1cncn1)c1ccc(F)cc1F)S(C)(=O)=O", "strain or isolate": "H11-20", "endpoint": "MLC", "value": ">80 µg/mL"}
{"SMILES": "Cc1nc(OCc2nc(-c3ccc(Cl)cc3)n[nH]2)c2ccccc2n1", "strain or isolate": "MTCC 343", "endpoint": "MIC100", "value": "50 µg/mL"}
{"SMILES": "CCCCCCCCCCC(=O)OC1CCN(CC(O)(Cn2cncn2)c2ccc(F)cc2F)CC1", "strain or isolate": "0504656", "endpoint": "MIC80", "read by": "broth dilution", "value": "2.031 µM"}
{"SMILES": "C[C@@H](c1ncncc1F)[C@](O)(Cn1cncn1)c1ccc(F)cc1F", "endpoint": "MLC90", "value": "0.5 µg/mL"}
{"SMILES": "Cc1nc(OCc2nc(-c3cccs3)n[nH]2)c2ccccc2n1", "strain or isolate": "MTCC 343", "endpoint": "MIC100", "value": "12.5 µg/mL"}
{"SMILES": "Nc1ncccc1-c1cc(Cc2ccc(COc3ccccn3)cc2)no1", "endpoint": "MIC90", "read by": "broth dilution", "value": "0.13 µg/mL"}
{"SMILES": "C[C@H]1[C@H](O)[C@@H](C)/C=C/C=C/C=C/C=C/C=C/C=C/C=C/[C@H](O[C@@H]2O[C@H](C)[C@@H](O)[C@H](N)[C@@H]2O)C[C@@H]2O[C@](O)(C[C@@H](O)C[C@@H](O)CC[C@H](O)[C@@H](O)C[C@@H](O)CC(=O)O[C@H]1C)C[C@H](O)[C@H]2C(=O)O", "strain or isolate": "19 isolates", "endpoint": "MFC50", "value": "2 µg/mL"}
{"SMILES": "C[C@H]1[C@H](O)[C@@H](C)/C=C/C=C/C=C/C=C/C=C/C=C/C=C/[C@H](O[C@@H]2O[C@H](C)[C@@H](O)[C@H](N)[C@@H]2O)C[C@@H]2O[C@](O)(C[C@@H](O)C[C@@H](O)CC[C@H](O)[C@@H](O)C[C@@H](O)CC(=O)O[C@H]1C)C[C@H](O)[C@H]2C(=O)O", "strain or isolate": "ATCC 46645", "endpoint": "MFC", "read by": "broth dilution", "value": "4 µg/mL"}
{"SMILES": "COC(=O)C1C(c2cc3ccccc3nc2Cl)C2=C(CCCC2=O)N(c2cccnc2)C1N", "strain or isolate": "MTCC 3008", "endpoint": "MIC99", "read by": "broth dilution", "value": "1000 µg/mL"}
{"SMILES": "Oc1ccc(-c2n[nH]c(COc3nc(C(F)(F)F)nc4ccccc34)n2)cc1", "strain or isolate": "MTCC 343", "endpoint": "MIC100", "value": "50 µg/mL"}
{"SMILES": "CCN1CCC(O)(/C=C/c2ccc(Cl)cc2)C(C(=O)/C=C/c2ccc(Cl)cc2)C1", "strain or isolate": "18 strains (amphotericin B-resistant)", "endpoint": "Mean MIC", "value": "4.6 µg/mL"}
{"SMILES": "COc1cc2ccnc3c2c(c1OC(=O)CSc1ccccc1)N(C)C=C3", "endpoint": "EC50", "value": ">15 µg/mL"}
{"SMILES": "NC(=O)N/N=C/c1ccsc1.NC(=O)N/N=C/c1ccsc1.[Br][Ni][Br]", "strain or isolate": "CBS 113.26", "endpoint": "MIC80", "read by": "turbidity / absorbance", "value": ">250 µg/mL"}
{"SMILES": "O=C(NCc1ccc(Cl)cc1)c1ccccc1O", "strain or isolate": "231", "endpoint": "Geometric mean MIC", "value": "343.8 µM"}
{"SMILES": "Oc1ccc(-c2n[nH]c(COc3ncnc4ccccc34)n2)cc1", "strain or isolate": "MTCC 282", "endpoint": "MIC100", "value": "12.5 µg/mL"}
{"SMILES": "CCCCCc1ccc(C(=O)Oc2c(OC)cc3ccnc4c3c2N(C)C=C4)cc1", "endpoint": "EC50", "value": "10 µg/mL"}
{"SMILES": "O=C(CCl)OC1CCN(CC(O)(Cn2cncn2)c2ccc(F)cc2F)CC1", "strain or isolate": "0504656", "endpoint": "MIC80", "read by": "broth dilution", "value": "9.66 µM"}
{"SMILES": "CCOC(=O)C1C(c2cc3cc(Cl)ccc3nc2Cl)C2=C(CCCC2=O)N(c2cccnc2)C1N", "strain or isolate": "MTCC 3008", "endpoint": "MIC99", "read by": "broth dilution", "value": "500 µg/mL"}
{"SMILES": "Clc1ccc2c(c1)nnc1nnnn12", "strain or isolate": "CCM F-373", "tested at": "22 µg/mL", "endpoint": "inhibition", "value": "95%"}
{"SMILES": "COC(=O)[C@H]1[C@@H]2C[C@@H](O[C@@H]3O[C@H](C)[C@@H](O)[C@H](N)[C@@H]3O)/C=C/C=C/C=C/C=C/C=C/C=C/C=C/[C@H](C)[C@@H](O)[C@H](C)[C@H](C)OC(=O)C[C@H](O)C[C@H](O)[C@@H](O)CC[C@H](O)C[C@H](O)C[C@](O)(C[C@@H]1O)O2", "strain or isolate": "H11-20", "endpoint": "MLC", "value": "0.29 µg/mL"}
{"SMILES": "CCOC(=O)C1C(c2cc3ccccc3nc2Cl)C2=C(CCCC2=O)N(c2cccnc2)C1N", "strain or isolate": "MTCC 3008", "endpoint": "MIC99", "read by": "broth dilution", "value": "500 µg/mL"}
{"SMILES": "COc1cc2ccnc3c2c(c1OC(=O)c1cccc(F)c1F)N(C)C=C3", "endpoint": "EC50", "value": ">15 µg/mL"}
{"SMILES": "CCC(C)CC(C)CCCCCCCCC(=O)N[C@H]1C[C@@H](O)[C@H](NCCN)NC(=O)[C@@H]2[C@@H](O)CCN2C(=O)[C@H]([C@H](O)CCN)NC(=O)[C@H]([C@H](O)[C@@H](O)c2ccc(O)cc2)NC(=O)[C@@H]2C[C@@H](O)CN2C(=O)[C@H]([C@@H](C)O)NC1=O", "strain or isolate": "26 isolates", "endpoint": "Geometric mean MEC", "value": "0.3 µg/mL"}
{"SMILES": "C[C@H]1[C@H](O)[C@@H](C)/C=C/C=C/C=C/C=C/C=C/C=C/C=C/[C@H](O[C@@H]2O[C@H](C)[C@@H](O)[C@H](N)[C@@H]2O)C[C@@H]2O[C@](O)(C[C@@H](O)C[C@@H](O)CC[C@H](O)[C@@H](O)C[C@@H](O)CC(=O)O[C@H]1C)C[C@H](O)[C@H]2C(=O)O", "strain or isolate": "150 clinical isolates", "endpoint": "MIC50", "value": "1 µg/mL"}
{"SMILES": "COc1cc2ccnc3c2c(c1OC(=O)c1ccc(OC(F)(F)F)cc1)N(C)C=C3", "endpoint": "EC50", "value": ">15 µg/mL"}
{"SMILES": "FC(F)(F)c1nc(OCc2nc(-c3ccc(Cl)cc3)n[nH]2)c2ccccc2n1", "strain or isolate": "MTCC 343", "endpoint": "MIC100", "value": "25 µg/mL"}
{"SMILES": "O=C(/C=C/c1ccc(Cl)cc1)OC1CCN(CC(O)(Cn2cncn2)c2ccc(F)cc2F)CC1", "strain or isolate": "0504656", "endpoint": "MIC80", "read by": "broth dilution", "value": "1.991 µM"}
{"SMILES": "NC(=O)N/N=C/c1ccsc1/C=N/NC(N)=O", "strain or isolate": "CBS 113.26", "endpoint": "MIC80", "read by": "turbidity / absorbance", "value": ">250 µg/mL"}
{"SMILES": "COC(/C=C/c1cccs1)=C1/C(=O)C=C(C)C1=O", "strain or isolate": "ATCC 90906", "endpoint": "MFC", "value": ">20 µg/mL"}
{"SMILES": "CCCCCOc1ccc(-c2cc(-c3ccc(C(=O)N[C@H]4C[C@@H](O)[C@@H](O)NC(=O)[C@@H]5[C@@H](O)[C@@H](C)CN5C(=O)[C@H]([C@H](O)CC(N)=O)NC(=O)[C@H]([C@H](O)[C@@H](O)c5ccc(O)c(OS(=O)(=O)O)c5)NC(=O)[C@@H]5C[C@@H](O)CN5C(=O)[C@H]([C@@H](C)O)NC4=O)cc3)no2)cc1", "endpoint": "MIC50", "read by": "broth dilution", "value": "0.03 µg/mL"}
{"SMILES": "FC(F)(F)c1nc(OCc2nc(-c3ccccc3)n[nH]2)c2ccccc2n1", "strain or isolate": "MTCC 343", "endpoint": "MIC100", "value": "25 µg/mL"}
{"SMILES": "C[C@H]1[C@H](O)[C@@H](C)/C=C/C=C/C=C/C=C/C=C/C=C/C=C/[C@H](O[C@@H]2O[C@H](C)[C@@H](O)[C@H](N)[C@@H]2O)C[C@@H]2O[C@](O)(C[C@@H](O)C[C@@H](O)CC[C@H](O)[C@@H](O)C[C@@H](O)CC(=O)O[C@H]1C)C[C@H](O)[C@H]2C(=O)O", "tested at": "5 mg/disc", "endpoint": "zone", "read by": "agar diffusion", "value": "0 mm"}
{"SMILES": "CCOC(=O)C1C(c2cc3cc(C)ccc3nc2Cl)C2=C(CCCC2=O)N(c2cccnc2)C1N", "strain or isolate": "MTCC 3008", "endpoint": "MIC99", "read by": "broth dilution", "value": "500 µg/mL"}